{"source": "ChEMBL document CHEMBL1157805", "about": "“Virtual screening, selection and development of a benzindolone structural scaffold for inhibition of lumazine synthase” (Bioorg Med Chem, 2010)", "proteins": {"B1": {"name": "6,7-dimethyl-8-ribityllumazine synthase (Mycobacterium tuberculosis), P9WHE9 (protein)", "chain": "MKGGAGVPDLPSLDASGVRLAIVASSWHGKICDALLDGARKVAAGCGLDDPTVVRVLGAIEIPVVAQELARNHDAVVALGVVIRGQTPHFDYVCDAVTQGLTRVSLDSSTPIANGVLTTNTEEQALDRAGLPTSAEDKGAQATVAALATALTLRELRAHS"}}, "substrate": "O=C1Nc2ccc(S(=O)(=O)NCCCCC(F)(F)P(=O)(O)O)c3cccc1c23", "assay": "Activity at Mycobacterium tuberculosis recombinant lumazine synthase after 30 mins by fluorescence assay", "outline": "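Recombinant M. tuberculosis lumazine synthase (2 μM) in 100 mM Tris-HCl pH 7.0, 100 mM NaCl, 5 mM DTT, 2% DMSO. Dihydroxybutanone phosphate was fixed at 100 μM, pyrimidinedione substrate varied 3–100 μM, and inhibitor 0–200 μM. Reactions were started with the pyrimidinedione substrate. Lumazine formation was read at 408 nm for 30 min at 27 °C. Velocity–substrate data were fitted by nonlinear regression to alternative inhibition models.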", "data": [{"protein": "B1", "values": [{"measurement": "kcat", "value": 0.0095, "unit": "s⁻¹"}]}]}
